# According to article PMC3359404:
# How the values were obtained:
# Assay in all cases: purified protein
# Settings in all cases: 10 mM pyruvate, 0.3 mM NADPH, 150 mM PIPES pH 6.6, room temperature
# NCC(=O)O = system: NCC(=O)O
# N=C(N)NCCC[C@H](N)C(=O)O = system: N=C(N)NCCC[C@H](N)C(=O)O
# NCCCC[C@H](N)C(=O)O = system: NCCCC[C@H](N)C(=O)O
substance,measurement,setting,value
"Ocs (His6-Ocs), octopine synthase (Agrobacterium tumefaciens (strain 15955))",kcat,NCC(=O)O,21.7 s⁻¹
same,Km,N=C(N)NCCC[C@H](N)C(=O)O,3500 ± 300 µM
same,kcat,N=C(N)NCCC[C@H](N)C(=O)O,12 s⁻¹
same,kcat/Km,N=C(N)NCCC[C@H](N)C(=O)O,3500 M⁻¹ s⁻¹
same,Km,NCCCC[C@H](N)C(=O)O,740 ± 80 µM
same,kcat,NCCCC[C@H](N)C(=O)O,2.17 s⁻¹
same,kcat/Km,NCCCC[C@H](N)C(=O)O,2970 M⁻¹ s⁻¹
